Measurements published in patent US4029881A, “Antibiotic 9-acyl-3"-thiomethoxymethyl-SF-837 composition and process for preparing the same” (Meiji Seika Co., Ltd., priority 1972, dated 1977).

Assay: panel tests on the bitter taste
Conditions: 10% by weight dry syrup in sucrose, 100-200 mg each; 10 persons; 0 undetectable, 1 negligible, 2 bitter (acceptable), 3 bitter (unacceptable), 4 bitter (objectionable)

Row | SMILES | Mean Scores (bitter taste) [point]
1 | CCC(=O)OC1CC(=O)OC(C)CC=CC=CC(OC(C)=O)C(C)CC(CC=O)C(OC2OC(C)C(OC3CC(C)(O)C(OC(=O)CC)C(C)O3)C(N(C)C)C2O)C1OC (stereo not shown) [9-Acetyl-SF-837, reference compound] | 2.8
2 | CCC(=O)OC1CC(=O)OC(C)CC=CC=CC(OC(C)=O)C(C)CC(CC=O)C(OC2OC(C)C(OC3CC(C)(OCSC)C(OC(=O)CC)C(C)O3)C(N(C)C)C2O)C1OC (stereo not shown) [9-acetyl-3"-thiomethoxymethyl-SF-837] | 0.2
3 | CCC(=O)OC1C=CC=CCC(C)OC(=O)CC(OC(=O)CC)C(OC)C(OC2OC(C)C(OC3CC(C)(OCSC)C(OC(=O)CC)C(C)O3)C(N(C)C)C2O)C(CC=O)CC1C (stereo not shown) [9-propionyl-3"-thiomethoxymethyl-SF-837] | 0.2
4 | CO[C@@H]1[C@@H](O[C@@H]2O[C@H](C)[C@@H](O[C@H]3C[C@@](C)(O)[C@@H](OC(=O)CC(C)C)[C@H](C)O3)[C@H](N(C)C)[C@H]2O)[C@@H](CC=O)C[C@@H](C)[C@@H](O)/C=C/C=C/C[C@@H](C)OC(=O)C[C@H]1O [Leucomycin] | 1.9
